Results published in patent US8846684B2 (priority 2011, dated 2014).

System: neuroadapted Sindbis virus (NSV)
Assay: Acute NSV encephalomyelitis in mice

With `C[C@@H](NC(=O)C1CCN(C(=O)c2cc3ccccc3n2Cc2ccc(Cl)cc2)CC1)c1ccccc1` [CCG 203926, (R)-1-(1-(4-chlorobenzyl)-1H-indole-2-carbonyl)-N-(1-phenylethyl)piperidine-4-carboxamide] the “protection from lethal NSV infection (survival)” value (30 mg/kg twice daily intraperitoneal, beginning 12 hours after viral challenge, 7-day period, vs untreated, vehicle or 9g, FIG. 2A) was “significantly protected”, the “development of severe hind limb paralysis” value (30 mg/kg twice daily, FIG. 2B) was “conferred benefit” and the “viral titers in the brains (plaque titration)” value (1-4 days after infection, compared to 9g or vehicle, FIG. 3A) was “lower”. The “density of preserved motor neuron axons in lumbar ventral nerve roots” value (14 days post-infection, compared to 9g or vehicle, FIG. 5B) was “enhanced cell survival”, the “hippocampal neuronal injury (fluorojade-positive neurons)” value (compared to 9g or vehicle, FIG. 4B) was “reduced neuronal injury” and the “pilot survival assays, dose comparison” value (doses of 10 mg/kg and 30 mg/kg) was “the higher concentration was more effective”.
